Data on one molecule can be found in patent US20030099935A1 (WHITEHEAD INSTITUTE FOR BIOMEDICAL RESEARCH, published 2003).

This assay deals with T1, N36 peptide (HIV-1 gp41 N-terminal ectodomain fragment, […] of gp160) (HIV-1, acetylated N-terminus; C-terminal amide).
T1 construct: Synthetic peptide made by FMOC chemistry; Three N36 helices form the central parallel coiled coil of the N36/C34 six-helix bundle; Residues are numbered by their position in HIV-1 gp160; also called N-peptide; N36 trimer
In words: protein dissection and biophysical characterisation of the peptide complex.

B1: C34 peptide (HIV-1 gp41 C-terminal ectodomain fragment, […] of gp160) (peptide)
peptide: not shown
modifications: acetylated N-terminus; C-terminal amide
notes: Synthetic peptide made by FMOC chemistry; Three C34 helices pack antiparallel on the outside of the N36 trimer; Residues are numbered by their position in HIV-1 gp160; also called C-peptide
On to B1, for which the binding result is “binds”.
